In patent publication US20180244756A1 (US Dept. of Health and Human Services, published 2018):

Target: T1, MERS-CoV S protein receptor binding domain (RBD), England1 strain, soluble (MERS-CoV, England1 strain, UniProt K9N5Q8 367-606)
T1 sequence: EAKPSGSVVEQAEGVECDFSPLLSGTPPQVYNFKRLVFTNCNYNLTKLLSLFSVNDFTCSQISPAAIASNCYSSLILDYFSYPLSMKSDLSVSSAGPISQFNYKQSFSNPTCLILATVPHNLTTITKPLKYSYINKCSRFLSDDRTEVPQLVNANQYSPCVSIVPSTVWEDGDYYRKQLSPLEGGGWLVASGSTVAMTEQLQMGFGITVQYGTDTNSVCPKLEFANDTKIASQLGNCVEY
Assay: ELISA on RBD, mAb titrated 0.0032-10 µg/ml

B1: D12 antibody (antibody, V domains shown)
VH: EVKLVESGGGLVKPGGSLKLSCAASGFTFSSYAMSWVRQTPEKRLEWVATISSGGTYTYYPDSVKGRFTISRDNAENTLYLQMSSLRSEDTAMYYCVRDGNSMDYWGQGTSVTVSS
VL: DIQMTQTTSSLSASLGDRVTIICRASQDINNYLNWYQQKPDGTVKLLIYYTSRLHSGVPSRFSGSGSGSDYSLTISNLEQEDIATYFCQQANTLPPTFGAGTKLELR
- EC50 (read off the curve): ~0.05 µg/mL
